Pooled drug test results. Numbers come from NIAID ChemDB, via PubChem.

All rows: whole-cell or culture tests; organism: HIV-1

Two numbers with a dash give a range or band. ECn is the concentration giving n% inhibition of infection, replication or growth. Neighbouring rows are from separate reports. An empty or dashed field is not shown.

structure,read by,changes,measure,cell line,conditions,strain,value
CO[C@H]1[C@H]2[C@@H]([C@H](OC(C)=O)[C@@H](C)C(=O)[C@@]34C[C@H](C)[C@H](OC(C)=O)[C@]3(/C=C(\C)[C@H]1OCc1ccccc1)O4)C2(C)C,luciferase,,EC50,MT-4,,NL4-3,1.38 µM
CN(C)c1cccc2c(S(=O)(=O)N3CCSC3c3cccnc3)cccc12,cytopathic effect / MTT,,EC50,MT-4,5 d,HE-NEV,>2000 µM
CO[P@](=O)(c1cc(C)cc(/C=C/C#N)c1)c1c(C(N)=O)[nH]c2ccc(Cl)c(F)c12,,K103N/Y181C,EC50,PBMC,,,0.0027 µM
O=c1c(O)cc([C@H]2Oc3cc(O)cc(O)c3C[C@H]2O)cc2c([C@H]3Oc4cc(O)cc(O)c4C[C@H]3O)cc(O)c(O)c12,p24,,EC50,H9,,IIIB,>48 µg/mL
COc1ccc2c(c1)N(C(=O)OC(C)C)[C@@H](CSC)C(=S)N2,p24,RT-M41L D67N K70R T215Y,EC50,PBL,,D148/89 (AZT-resistant RT M41L D67N K70R T215Y),<0.01 µM
Cc1cc(C#N)cc(C)c1Oc1nc(NC2CCC(NCc3ccc(Br)cc3)CC2)nc2ccsc12,MTT,NNRTI-resistant (RT K103N),EC50,MT-4,,IIIB,≥0.766 µM
CC(C)=CCN1Cc2cc(Cl)cc3[nH]c(=S)n(c23)C[C@@H]1C,syncytia,,EC50,CEM,,IIIB,0.06 µM
CC(C)NC(=O)[C@@H]1C[C@@H]2CCCC[C@@H]2N1C(=O)[C@@H](O)[C@H](Cc1ccccc1)NC(=O)[C@@H](NC(=O)COc1cccc2ccccc12)C(C)C,p24,,EC50,MT-2,,RF,0.006–0.11 µM
O=C1/C(=C/c2ccc(O)c(O)c2)CCC/C1=C\c1ccc(O)c(O)c1,cytopathic effect / MTT,,EC50,MT-4,,,>7.4 µM
O=c1[nH]cnc2c1ncn2[C@@H]1O[C@@H](CO)C=C1F,RT activity,,EC50,PBMC,,LAV,>100 µM
Cc1cn([C@@H]2O[C@H](CO[Si](C)(C)C(C)(C)C)[C@@]3(OS(=O)(=O)C=C3N)[C@H]2O[Si](C)(C)C(C)(C)C)c(=O)[nH]c1=O,syncytia,RT-E138K,EC50,CEM,,IIIB,4.6 µM
CCCCN1C(=O)C(CC2CCCCC2)NC(=O)C12CCN(Cc1ccc3c(c1)OCCO3)CC2,p24,,EC90,PBMC,,BAL R5,0.709 µM
CC(C)[C@H](NC(=O)N(C)Cc1ccccn1)C(=O)N[C@@H](Cc1ccccc1)[C@H](O)C(=O)N1[C@H](C(=O)NC(C)(C)C)C[C@@H]2CCCC[C@@H]21,p24,,EC50,MT-2,,RF,0.24 µM
Cc1cn([C@H]2C[C@H](N=[N+]=[N-])[C@@H](CO)O2)c(=O)[nH]c1=O,p24,,EC90,PBMC,,NL4-3 X4,0.181 µM
Cc1cn([C@H]2C[C@H](N=[N+]=[N-])[C@@H](CO)O2)c(=O)[nH]c1=O,MTT,NNRTI-resistant (RT L100I),EC50,MT-4,,IIIB,0.00375 µM
Nc1ncnc2c1ncn2CC(OCP(=O)(O)O)Sc1ccccc1,cytopathic effect,,EC50,CEM,,,53.3 µg/mL
CCCCN1C(=O)C(CC2CCCCC2)NC(=O)C12CCN(Cc1ccc3c(c1)OCCO3)CC2,p24,MDR,EC50,PBMC,,TM,>1 µM
Cc1ccnc2c1NC(=O)c1cccnc1N2C1CC1,cytopathic effect / MTT,,EC50,MT-4,,,0.01 µM
COC(=O)C1CSC(c2cccnc2)N1S(=O)(=O)c1cccc2c(N(C)C)cccc12,cytopathic effect / MTT,,EC50,MT-4,,IIIB,>1000 µM
Cc1cn([C@H]2C=C[C@@H](CO)O2)c(=O)[nH]c1=O,p24,MDR,EC50,PBMC,,MM,0.09 µM
Oc1ccc(/C=C/c2cc(O)cc(O)c2)cc1,p24,,EC50,PBMC,clinical isolate,EJC-R2,>10 µM
Cc1cn([C@H]2C[C@H](N=[N+]=[N-])[C@@H](CO)O2)c(=O)[nH]c1=O,p24,,EC50,PBMC,,BaL,0.004 µM
CC(C)(C)NC(=O)[C@@H]1C[C@@H]2CCCC[C@@H]2N1C(=O)[C@@H](O)[C@H](Cc1ccccc1)NC(=O)[C@H](CC(N)=O)NC(=O)COc1ccc2cc(Br)ccc2c1,p24,,EC90,MT-2,,RF,0.14 µM
O=c1[nH]cnc2c1ncn2[C@H]1CC[C@@H](CO)O1,p24,,EC50,PBL,clinical isolate,Clinical isolate,2.5 µM
Nc1nc(N)c2ncn([C@H]3CO[C@@H](CO)O3)c2n1,cytopathic effect / XTT,RT-K65R Q151M,EC50,MT-2,,,200 µM
O=C(/C=C(O)/C=C/c1ccc(O)c(O)c1)/C=C/c1ccc(O)c(O)c1,cytopathic effect / MTT,,EC50,MT-4,,,>17 µM
Cc1c(O)cccc1C(=O)N[C@@H](CSc1ccccc1)[C@H](O)CN1C[C@H]2CCCC[C@H]2C[C@H]1C(=O)NC(C)(C)C,cytopathic effect / MTT,,EC50,MT-4,,IIIB,0.054 µM
Nc1nc2c(ncn2[C@H]2CO[C@@H](CO)O2)c(=O)[nH]1,cytopathic effect / XTT,RT-F116Y Q151M T215Y,EC50,MT-2,,,20 µM
Cc1cc(C#N)cc(C)c1Oc1nc(NC2CCN(Cc3cccc(C(N)=O)c3)CC2)nc2sccc12,MTT,NNRTI-resistant (RT K103N),EC50,MT-4,,IIIB,0.00888 µM
Nc1ccn([C@H]2O[C@@H](CO)C=C2F)c(=O)n1,,,EC90,PBMC,,xxBRU,2.1 µM
Cc1occc1C(=S)Nc1ccc(Cl)c(/C=N/OC(C)(C)C)c1,syncytia,RT-L100I,EC50,CEM,,IIIB,0.085 µg/mL
CC(C)Nc1cccnc1N1CCN(C(=O)c2cc3ccccc3[nH]2)CC1,syncytia,RT-C181I,EC50,CEM,,IIIB,>15 µM
CC(C)(C)NC(=O)[C@@H]1C[C@@H]2CCCC[C@@H]2CN1C[C@@H](O)[C@H](Cc1ccccc1)NC(=O)[C@H](CC(N)=O)NC(=O)c1ccc2ccccc2n1,p24,MDR,EC50,PBMC,,TM,0.07 µM
O=C1c2cccn2-c2ccc(Cl)cc2S(=O)(=O)N1C1CCCC1,cytopathic effect / MTT,,EC50,MT-4,,IIIB,7.4 µM
CCCCCCCCCCCCCCCCCCCCCCC(=O)O[C@@H]1[C@@H](C)[C@@]2(O)[C@@H](C=C(COC(C)=O)C[C@]3(O)C(=O)C(C)=C[C@@H]23)[C@@H]2C(C)(C)[C@]12O,p24 / ELISA,,EC50,C8166,,74V,1.828 µM
O=c1[nH]cnc2c1ncn2[C@H]1CC[C@@H](CO)O1,MTT,,EC50,MT-4,,IIIB,0.7 µg/mL
C=C(C)OC(=O)N1c2cc(Cl)ccc2NC(=S)C1(C)C,p24,,EC50,PBL,,D34,0.003 µM
CC(C)CN(C[C@@H](O)[C@H](Cc1ccccc1)NC(=O)O[C@H]1CCOC1)S(=O)(=O)c1ccc(N)cc1,cytopathic effect / MTT,,EC50,MT-4,,IIIB,0.12 µM
CC(C)[C@H](NC(=O)c1ccc2ccccc2n1)C(=O)N[C@@H](Cc1ccccc1)[C@H](O)C(=O)N1CCC[C@H]1C(=O)NC(C)(C)C,p24,,EC90,MT-2,,RF,0.62 µM
Nc1ccn([C@H]2CC[C@@H](CO)O2)c(=O)n1,p24,,EC50,CBMC,,HXB2D,0.8 ± 0.1 µM
CCN1C(=O)Nc2ccc(Cl)cc2S1(=O)=O,cytopathic effect / MTT,,EC50,MT-4,,IIIB,13 µM
C/C=C(/C)C(=O)O[C@@H]1/C(C)=C/[C@@]23O[C@@]2(C[C@H](C)[C@@H]3OC(C)=O)C(=O)[C@H](C)[C@@H](OC(C)=O)[C@@H]2[C@H]([C@@H]1OC)C2(C)C,luciferase,,EC50,MT-4,,NL4-3,>20 µM
O=C(O[C@@H]1[C@@H](c2c(O)cc(O)c3c2O[C@H](c2cc(O)c(O)c(O)c2)[C@H](OC(=O)c2cc(O)c(O)c(O)c2)C3)c2c(O)cc(O)cc2O[C@@H]1c1cc(O)c(O)c(O)c1)c1cc(O)c(O)c(O)c1,p24,,EC50,H9,,IIIB,>40 µg/mL
O=c1[nH]cnc2c1ncn2[C@H]1CC[C@@H](CO)O1,p24,RT-K65R L74V M184V,EC50,PBMC,,ddI-resistant (RT K65R/L74V/M184V),>10 µM
c1cc(CN2CCCNCCNCCCNCC2)ccc1CN1CCCNCCNCCCNCC1,p24,MDR,EC50,PBMC,,MM,>1 µM
Nc1nc(NC2CC2)c2ncn([C@H]3C=C[C@@H](CO)C3)c2n1,p24,,EC50,PBMC,,LAI,1.2 µM
Cc1cn([C@H]2C[C@H](N=[N+]=[N-])[C@@H](COC(=O)C3=CN(C)C=CC3)O2)c(=O)[nH]c1=O,p24 / ELISA,,EC50,PBL(PHA STIM.) + PBL,,CD 451,<0.1 µM
C[C@H](NC(=O)[C@H](CCCN=C(N)N)NC(=O)c1ccc(CNCc2ccccn2)cc1)c1cccc2ccccc12,p24,,EC50,PBMC,,YU-1 R5 clinical isolate,>10 µM
C[C@H]1/C=C/[C@@]2(C)CC[C@@H](C(C)(C)O)[C@@H]2[C@@H](O)C[C@](C)(O)/C=C/C1,p24,,EC50,PBMC,,BAL R5,8.4 µM
CC(C)=CCN1Cc2cc(Cl)cc3[nH]c(=S)n(c23)C[C@@H]1C,MTT,RT-D67N K70N T215F K219Q,EC50,MT-4,,ADP141 (RT D67N K70N T215F K219Q),0.001 µg/mL
Cc1ccnc2c1NC(=O)c1cccnc1N2C1CC1,β-galactosidase,,EC50,MAGI + MAGI-CCR5,3 d,HE-NEV,>1000 µM
Cc1cc(C#N)cc(C)c1Oc1nc(Nc2ccc(C#N)cc2)nc(N)c1Br,MTT,NNRTI-resistant (RT E138K),EC50,MT-4,,IIIB,0.0144 µM
C1CNCCNCCCN(CCCN2CCCNCCNCCCNCC2)CCNC1,cytopathic effect / MTT,,EC50,MT-4,,NL4-3,0.4 µg/mL
Cc1cn([C@H]2C[C@H](N=[N+]=[N-])[C@@H](CO)O2)c(=O)[nH]c1=O,β-galactosidase,,EC50,MAGI + MAGI-CCR5,3 d,HE-NEV,0.013 µM
Fc1cccc(F)c1[C@H]1SCc2nc3ccccc3n21,cytopathic effect / MTT,,EC50,MT-4,,NDK,0.2 µg/mL
CCOC(=O)C1CN(Cc2ccc(S(N)(=O)=O)cc2)CCC1Nc1nc(Oc2c(C)cc(C#N)cc2C)c2sccc2n1,MTT,NNRTI-resistant (RT E138K),EC50,MT-4,,IIIB,0.607 µM
Cc1cn([C@@H]2O[C@H](CO[Si](C)(C)C(C)(C)C)C3(OS(=O)(=O)C=C3N)[C@H]2O[Si](C)(C)C(C)(C)C)c(=O)n(C)c1=O,syncytia,RT-E138K,EC50,CEM,,IIIB,>75 µM
O=S(=O)(O)OCC1OC2OC3C(COS(=O)(=O)O)OC(OC4C(COS(=O)(=O)O)OC(OC5C(COS(=O)(=O)O)OC(OC6C(COS(=O)(=O)O)OC(OC7C(COS(=O)(=O)O)OC(OC8C(COS(=O)(=O)O)OC(OC9C(COS(=O)(=O)O)OC(OC1C(OS(=O)(=O)O)C2OS(=O)(=O)O)C(OS(=O)(=O)O)C9OS(=O)(=O)O)C(OS(=O)(=O)O)C8OS(=O)(=O)O)C(OS(=O)(=O)O)C7OS(=O)(=O)O)C(OS(=O)(=O)O)C6OS(=O)(=O)O)C(OS(=O)(=O)O)C5OS(=O)(=O)O)C(OS(=O)(=O)O)C4OS(=O)(=O)O)C(OS(=O)(=O)O)C3OS(=O)(=O)O,cytopathic effect / MTT,,EC50,MT-4,,NL43)(JM3100r),>125 µg/mL
CC(C)Nc1cccnc1N1CCN(C(=O)c2cc3cc(NS(C)(=O)=O)ccc3[nH]2)CC1,p24,,EC50,PBL,clinical isolate,Clinical isolate,0.04 µM
O=C(O)P(=O)(O)O,,Remodeled TAMs (K70G V75T L228R K219R),EC50,MT-2,,HXB2,112.3 µM
CC(=O)O[C@H]1[C@H]2[C@@H]([C@H](OC(C)=O)[C@@H](C)C(=O)[C@@]34C[C@H](C)[C@H](OC(C)=O)[C@]3(/C=C(\C)[C@H]1OCc1ccccc1)O4)C2(C)C,luciferase,,EC50,MT-4,,NL4-3,>20 µM
O=C(O[C@@H]1Cc2c(O)cc(O)cc2O[C@@H]1c1ccc(O)cc1)c1cc(O)c(O)c(O)c1,p24,,EC50,H9,,IIIB,>50 µg/mL
Nc1ccn([C@@H]2O[C@H](CO)C=C2F)c(=O)n1,,,EC50,PBMC,,xxBRU,<8 µM
CCc1cc(NCc2nc3c(Cl)ccc(Cl)c3o2)c(=O)[nH]c1C,syncytia,RT-E138K,EC50,CEM,,IIIB,0.86 µM
CC(C)=CCN1C(=O)Nc2ccc(Cl)cc2S1(=O)=O,cytopathic effect / MTT,,EC50,MT-4,,IIIB,9.5 µM
O=C(O[C@@H]1Cc2c(O)cc(O)c(Cc3c(O)cc(O)c4c3O[C@H](c3cc(O)c(O)c(O)c3)[C@H](OC(=O)c3cc(O)c(O)c(O)c3)C4)c2O[C@@H]1c1cc(O)c(O)c(O)c1)c1cc(O)c(O)c(O)c1,p24,,EC50,H9,,IIIB,>45 µg/mL
CC(C)Nc1cccnc1N1CCN(C(=O)c2cc3cc(NS(C)(=O)=O)ccc3[nH]2)CC1,syncytia,RT-K103N,EC50,CEM,,IIIB,0.27 µg/mL
Cc1c(O)cccc1C(=O)N[C@@H](CSc1ccccc1)[C@H](O)CN1C[C@H]2CCCC[C@H]2C[C@H]1C(=O)NC(C)(C)C,p24,,EC90,PBMC,,NL4-3 X4,0.075 µM
CCN1C(=O)c2cccn2-c2ccccc2S1(=O)=O,cytopathic effect / MTT,,EC50,MT-4,,IIIB,200 µM
Cc1cn([C@@H]2O[C@H](CO[Si](C)(C)C(C)(C)C)C3(OS(=O)(=O)C=C3N)[C@H]2O[Si](C)(C)C(C)(C)C)c(=O)n(C)c1=O,syncytia,RT-E138K,EC50,CEM,,IIIB,>50 µg/mL
CC#CCN1C(=O)[C@H]([C@@H](O)C2CCCCC2)NC(=O)C12CCN(Cc1c(C)nn(-c3ccccc3)c1C)CC2,p24,,EC90,PBMC,,BAL R5,0.324 µM
Cc1occc1C(=S)Nc1ccc(Cl)c(C(=O)OC2CCCC2)c1,syncytia,RT-L100I,EC50,CEM,,IIIB,0.17 µg/mL
Nc1ncnc2c1ncn2[C@@H]1O[C@@H](CO)C=C1F,RT activity,,EC90,PBMC,,LAV,332 µM